Anti-infective test results gathered from many reports (values: NIAID ChemDB through PubChem).

Common to all: growth or infection tests; organism: Mycobacterium tuberculosis

Neighbouring rows are from separate reports. MIC bound comes from a single tested concentration. Inhibition is in % at the dose shown (toxicity tests: loss of growth or viability). A number after MIC or MFC names an inhibition level or a share of isolates. ECn: concentration that inhibits the pathogen or its effect by n%. Blank or dashed fields: not listed here.

compound	conditions	dose	endpoint	method	changes	strain or isolate	value
NC(=O)c1cnc(Cl)cn1	-	-	MIC	-	-	ATCC35801	16 µg/mL
Clc1ccc(-n2ncc(C(c3ccccc3)n3ccnc3)c2-c2ccccc2)cc1	-	-	MIC50	-	-	ATCC 35820 (streptomycin-resistant)	≥100 µM
NC1[C@H]2CN(c3nc4c(cc3F)c(=O)c(C(=O)O)cn4-c3ccc(F)cc3F)C[C@@H]12	-	-	MIC50	-	-	37 strains (drug-resistant)	>4 µg/mL
C=C(C)/C=C/[C@]12C[C@H](C)[C@H]3CC[C@](C)(NC)[C@@H](CC[C@H]1C)[C@@H]32	-	-	MIC	-	-	H37Rv	15 µg/mL
N[C@@H]1CN(c2c(F)cc3c(=O)c(C(=O)O)cn([C@@H]4C[C@@H]4F)c3c2Cl)CC12CC2	-	-	MIC50	resazurin	MDR (rifampicin- isoniazid-resistant)	Clinical strain	0.0625 µg/mL
COc1ccc(C2c3cc4c(c(OC)c3CC3OCC(=O)C32)OCO4)cc1OC	-	12.5 µg/mL	inhibition	BACTEC	-	H37Rv	28%
CC1(c2ccccn2)Nc2ccccc2S1	-	-	MIC	-	-	H37Rv	6.3 µg/mL
C[C@H]1COc2c(N3CCN(C)CC3)c(F)cc3c(=O)c(C(=O)O)cn1c23	-	-	MIC	-	-	CSU28	0.25 µg/mL
Fc1ccc(-c2c(C(c3ccccc3)n3ccnc3)cnn2-c2ccc(F)cc2)cc1	-	-	MIC50	-	-	ATCC 35828 (pyrazinamide-resistant)	≥100 µM
O=C(Nc1ccc(C(F)(F)F)cc1)c1cc(Br)ccc1OP(=O)(c1ccccc1)c1ccccc1	14 d	-	MIC	-	-	My 331/88	2 µM
C=C1C(=O)OCC2C(C(=O)O)=CC3C(C)C(C)=CC123	-	-	MIC bound	BACTEC	-	H37Rv	>12.8 µg/mL
COc1ccc(/C(C)=N/NC(=O)c2ccncc2)cc1F	-	-	MIC	-	-	H37Rv	>20 µg/mL
CC1CN(c2c(F)cc3c(=O)c(C(=O)O)cn(C4CC4)c3c2F)CCN1	-	-	MIC	-	-	CSU22	0.5 µg/mL
CC[C@@H](CO)NCCN[C@@H](CC)CO	-	-	MIC	resazurin	Drug-resistant	18b+	1.2 µM
O=[N+]([O-])c1ccc(/C=N\O)o1	-	-	MIC	BACTEC	-	H37Rv	6.25 µg/mL
CCOC(=O)c1c[nH]c(C(=O)OCC)c1-c1cc2c(-c3ccccc3)nc3ccccc3n2c1	-	-	EC50	-	-	H37Rv	<12.5 µg/mL
Cc1cc(-c2cc3c(cc2F)c(=O)c(C(=O)O)cn3C2CC2)cc(C)n1	-	-	MIC	-	-	131-4	2 µg/mL
C[C@]1(COc2ccc(N3CCC(Oc4ccc(OC(F)(F)F)cc4)CC3)cc2)Cn2cc([N+](=O)[O-])nc2O1	-	-	MIC	-	-	UT26	0.012 µg/mL
C=C/C(C)=C/[C@@]1(C)SC(=O)C(C)=C1O	-	-	MIC	-	-	PMH29:kasA	30 µg/mL
O=C1c2cc(Cl)ccc2OP(=O)(c2ccccc2)N1c1ccc(C(F)(F)F)cc1	7 d	-	MIC	-	-	My 331/88	0.5 µM
CC(=O)C1(N=Nc2ccc(S(N)(=O)=O)cc2)CCOC1=O	-	-	MIC bound	BACTEC	-	H37Rv	>12.5 µg/mL
C1=C(c2nc(-c3cccnc3)no2)c2ccccc2C12CCN(CC1CCCO1)CC2	-	-	MIC	turbidity	Spiroindene-resistant	TB377	15.5 µM
O=C1C2=C(Nc3cc(Cl)ccc3N2)OC1c1ccc(C2OC3=C(Nc4ccc(Cl)cc4N3)C2=O)cc1	-	-	MIC bound	BACTEC	-	H37Rv	>12.5 µg/mL
CO[C@H]1/C=C/O[C@@]2(C)Oc3c(C)c(O)c4c(O)c(c(/C=N/N5CCN(C6CCCC6)CC5)c(O)c4c3C2=O)NC(=O)/C(C)=C\C=C\[C@H](C)[C@H](O)[C@@H](C)[C@@H](O)[C@@H](C)[C@H](OC(C)=O)[C@@H]1C	-	-	MIC	-	-	H37Rv	0.04 µg/mL
Cc1ccc(C=C(C(=O)O)C(=O)O)o1	-	-	MIC bound	BACTEC	-	H37Rv	>12.5 µg/mL
NNC(=O)c1ccncc1	-	-	MIC	-	-	S-2M (susceptible)	0.025 µg/mL
O=C(N/N=C/c1ccccc1)c1nn[nH]n1	-	-	MIC bound	BACTEC	-	H37Rv	>12.5 µg/mL
O=C1c2cc(Br)ccc2OP(=O)(c2ccccc2)N1c1ccc(C(F)(F)F)cc1	21 d	-	MIC	-	-	9449/2007	1 µM
Fc1ccc(-n2ncc(C(c3ccccc3)n3ccnc3)c2-c2ccccc2)c(F)c1	-	-	MIC50	-	-	ATCC 35820 (streptomycin-resistant)	≥100 µM
Cc1cc(=O)c2c([nH]1)c1c(c3[nH]c(C)cc(=O)c32)Oc2ccccc2O1	-	-	MIC	-	-	PAS-R	0.8 µg/mL
Clc1ccc(-c2c(C(c3ccccc3)n3ccnc3)cnn2-c2ccc(Cl)cc2Cl)cc1	-	-	MIC90	-	-	ATCC 27294	25.3 µM
CC(=O)NC(CCC(=O)C=[N+]=[N-])C(=O)O	-	12.8 µg/mL	inhibition	BACTEC	-	H37Rv	-7%
CC(C)(C)c1ccc(CN2CCC3(CC2)C(=O)Nc2ccccc23)cc1	-	-	MIC	turbidity	-	TB333	1.6 µM
CO/C(=N\N=C\c1ccc(C(F)(F)F)cc1)c1ccncc1	-	-	MIC	-	-	16PI	>20 µg/mL
CC(=O)NS(=O)(=O)c1ccc(N=NC2C(=O)N(C(=O)c3ccncc3)N=C2C)cc1	-	-	MIC	BACTEC	-	H37Rv	≥12.8 µg/mL
O=C(NCc1ccc(N2CCN(Cc3ccccc3)CC2)cc1)c1ccc([N+](=O)[O-])o1	-	-	MIC	-	-	UT18	0.012 µg/mL
CCC1(c2ccccn2)Nc2ccccc2S1	-	-	MIC	-	-	H37Rv	>200 µg/mL
NNC(=O)c1ccncc1	-	-	MIC	-	-	Isolate 20	<2 µg/mL
O=c1oc2ccccc2c(O)c1C1=NNC(c2ccc(C(F)(F)F)cc2)C1	-	-	MIC90	agar	Isoniazid-resistant	INHR-MTB	14.78 µg/mL
Clc1ccc(-n2ncc(C(c3ccccc3)n3ccnc3)c2-c2ccccc2)c(Cl)c1	-	-	MIC90	-	-	ATCC 35828 (pyrazinamide-resistant)	88.5 µM
CC1COc2c(N3CCN(C)CC3)c(F)cc3c(=O)c(C(=O)O)cn1c23	-	-	MIC	resazurin	Drug-resistant	18b+	0.14 µM
NC(N)=N/C(N)=N/c1cnc([N+](=O)[O-])s1	-	-	MIC bound	resazurin	-	H37Rv	>6.25 µg/mL
O=C(Nc1ccc(C(F)(F)F)cc1)c1cc(Cl)ccc1OP(=O)(c1ccccc1)c1ccccc1	21 d	-	MIC	-	-	Praha 131	1 µM
CCOC(=O)c1[nH]cc(C)c1-c1ccc2c(-c3ccccc3)nc3ccccc3n12	-	-	MIC	-	-	H37Rv	<12.5 µg/mL
CCCOCC(O)CNCCNCC(O)COCCC	-	-	MIC bound	-	-	H37Rv	>6.25 µg/mL
O=C1c2cc(Cl)ccc2OP(=O)(c2ccccc2)N1c1ccc(Cl)cc1	14 d	-	MIC	-	-	My 331/88	4 µM
Cc1oc2c(C)c(O)c3c(c2c1C1(C)OCCO1)C(=O)C=C(Cl)C3=O	-	-	MIC bound	BACTEC	-	H37Rv	>12.5 µg/mL
CO[C@H]1/C=C/O[C@@]2(C)Oc3c(C)c(O)c4c(O)c(c(/C=N/N5CCN(C/C=C/c6ccccc6)CC5)c(O)c4c3C2=O)NC(=O)/C(C)=C\C=C\[C@H](C)[C@H](O)[C@@H](C)[C@@H](O)[C@@H](C)[C@H](OC(C)=O)[C@@H]1C	-	-	MIC	-	-	2257 (RIF-S)	0.03 µg/mL
Clc1ccc(-c2c(C(c3ccccc3)n3ccnc3)cnn2-c2ccccc2)cc1	-	-	MIC50	-	-	ATCC 35820 (streptomycin-resistant)	≥100 µM
CO[C@H]1/C=C/O[C@@]2(C)Oc3c(C)c(O)c4c(O)c(c5c(c4c3C2=O)NC2(CCN(CC(C)C)CC2)N=5)=NC(=O)/C(C)=C\C=C\[C@H](C)[C@H](O)[C@@H](C)[C@@H](O)[C@@H](C)[C@H](OC(C)=O)[C@@H]1C	-	-	MIC	-	-	CSU23	≤0.125 µg/mL
Fc1ccc(-c2c(C(c3ccccc3)n3ccnc3)cnn2-c2ccccc2)cc1	-	-	MIC50	-	-	ATCC 35828 (pyrazinamide-resistant)	≥100 µM
CC(C)OC(=O)N1CC(C)N(C(=O)OC(C)C)CC1C	-	-	MIC bound	BACTEC	-	H37Rv	>12.5 µg/mL
CC1COc2c(N3CCN(C)CC3)c(F)cc3c(=O)c(C(=O)O)cn1c23	-	-	MIC50	-	-	82 strains	1 µg/mL
CO/C(=N\N=C\c1ccccc1)c1ccncc1	-	-	MIC	-	-	16PI	>20 µg/mL
CO[C@H]1/C=C/O[C@@]2(C)Oc3c(C)c(O)c4c(O)c(c(/C=N/N5CCN(C6CCCC6)CC5)c(O)c4c3C2=O)NC(=O)/C(C)=C\C=C\[C@H](C)[C@H](O)[C@@H](C)[C@@H](O)[C@@H](C)[C@H](OC(C)=O)[C@@H]1C	-	-	MIC	-	-	1025	0.08 µg/mL
Cc1cc2oc(=O)c(C3=NNC(c4ccc(Cl)cc4Cl)C3)c(O)c2cc1C	-	-	MIC90	agar	-	H37Rv	>6.25 µg/mL
C[C@@H]1CN(c2c(F)c(N)c3c(=O)c(C(=O)O)cn(C4CC4)c3c2F)C[C@H](C)N1	-	-	MIC	-	-	S-3M (susceptible)	0.2 µg/mL
Cc1cc2oc(=O)c(C(=O)/C=C/c3ccc(O)cc3O)c(O)c2cc1C	-	-	MIC90	agar	Isoniazid-resistant	INHR-MTB	>6.25 µg/mL
O=[N+]([O-])c1cn2c(n1)OC[C@@H](OCc1ccc(OC(F)(F)F)cc1)C2	-	-	MIC	-	-	UT15	0.024 µg/mL
CO/C(=N\N=C\c1ccc(OC)c(F)c1)c1ccncc1	-	-	MIC	-	-	H37Rv	>20 µg/mL
Cc1ccc2c(c1)NC(c1ccncc1)S2	-	-	MIC	-	-	H37Rv	50 µg/mL
CCC1=C(C)C(=O)OC1n1cnc2c(N)ncnc21	-	12.5 µg/mL	inhibition	BACTEC	-	H37Rv	8%
O=C(Nc1ccc(Cl)cc1)c1cc(Cl)ccc1OP(=O)(OCc1ccccc1)OCc1ccccc1	14 d	-	MIC	-	-	My 331/88	16 µM
COc1ccc(-c2noc(C3=CC4(CCN(CC5CCCO5)CC4)c4ccccc43)n2)cc1	-	-	MIC	resazurin	Drug-resistant	Beijing (E-47/94)	0.39 µM
C[C@H]1COc2c(N3CCN(C)CC3)c(F)cc3c(=O)c(C(=O)O)cn1c23	-	-	MBC	-	-	001-011 (drug-resistant)	1 µg/mL
C/C=C1/CN2[C@H]3C[C@@]45c6ccccc6N(C)[C@H]4[C@@H]2C[C@@H]1[C@@H]3[C@H]5O	-	-	MIC	BACTEC	-	H37Rv	≥12.8 µg/mL
Clc1ccc(-n2ncc(C(c3ccccc3)n3ccnc3)c2-c2ccccc2Cl)c(Cl)c1	-	-	MIC50	-	-	ATCC 35820 (streptomycin-resistant)	22.4 µM
Cc1c[nH]c(C(=O)NN)c1-c1ccc2c(-c3ccccc3)nc3ccccc3n12	-	12.5 µg/mL	inhibition	-	-	H37Rv	86%
C1=C(c2nc(-c3ccccc3)no2)c2ccccc2OC12CCN(CC1CCCO1)CC2	-	-	EC80	resazurin	-	ss18b	50 µM
Fc1ccccc1-c1c(C(c2ccccc2)n2ccnc2)cnn1-c1ccccc1	-	-	MIC50	-	-	ATCC 27294	≥100 µM
CO[C@H]1/C=C/O[C@@]2(C)Oc3c(C)c(O)c4c(O)c(c(/C=N/N5CCN(C6CCCC6)CC5)c(O)c4c3C2=O)NC(=O)/C(C)=C\C=C\[C@H](C)[C@H](O)[C@@H](C)[C@@H](O)[C@@H](C)[C@H](O)[C@@H]1C	-	-	MBC	-	-	Erdman	1 µg/mL
c1ccc2c(c1)NC(c1ccc3ccccc3n1)S2	-	-	MIC	-	-	H37Rv	1.6 µg/mL
CCCCc1c2c(nn1C(=O)C=C(C)C)C(=O)C=C(Nc1ccccc1)C2=O	-	6.25 µg/mL	inhibition	BACTEC	-	H37Rv	0%
O=C(O)c1cn(C2CC2)c2c(F)c(N3CCSCC3)c(F)cc2c1=O	-	-	MIC	-	-	CSU20	1 µg/mL
CCOC(=O)Nc1cc2c(c(N)n1)N=C(c1ccccc1)CO2	-	-	MIC bound	resazurin	-	H37Rv	>6.25 µg/mL
O=C(Nc1ccc(C(F)(F)F)cc1)c1cc(Cl)ccc1OP(=O)(OCc1ccccc1)OCc1ccccc1	7 d	-	MIC	-	-	My 331/88	2 µM
Cc1cn([C@H]2C[C@H](F)[C@@H](CO)O2)c(=O)[nH]c1=O	-	-	MIC bound	resazurin	-	H37Rv	>6.25 µg/mL
Cc1ccc(-c2noc(C3=CC4(CCN(CC5CCCO5)CC4)c4ccccc43)n2)cn1	-	-	MIC	resazurin	Drug-resistant	Beijing (E-47/94)	0.39 µM
COC(=O)N1CCC2CCC=C(c3cccc4c3OCO4)C21	-	6.25 µg/mL	inhibition	resazurin	-	H37Rv	41%
O=C(/C=C/c1ccc(C(F)(F)F)cc1)c1c(O)c2ccccc2oc1=O	-	-	MIC90	agar	Isoniazid-resistant	INHR-MTB	26.25 µg/mL

The last 5 rows once more:

compound	conditions	dose	endpoint	method	changes	strain or isolate	value
O=C(Nc1ccc(C(F)(F)F)cc1)c1cc(Cl)ccc1OP(=O)(OCc1ccccc1)OCc1ccccc1	7 d	-	MIC	-	-	My 331/88	2 µM
Cc1cn([C@H]2C[C@H](F)[C@@H](CO)O2)c(=O)[nH]c1=O	-	-	MIC bound	resazurin	-	H37Rv	>6.25 µg/mL
Cc1ccc(-c2noc(C3=CC4(CCN(CC5CCCO5)CC4)c4ccccc43)n2)cn1	-	-	MIC	resazurin	Drug-resistant	Beijing (E-47/94)	0.39 µM
COC(=O)N1CCC2CCC=C(c3cccc4c3OCO4)C21	-	6.25 µg/mL	inhibition	resazurin	-	H37Rv	41%
O=C(/C=C/c1ccc(C(F)(F)F)cc1)c1c(O)c2ccccc2oc1=O	-	-	MIC90	agar	Isoniazid-resistant	INHR-MTB	26.25 µg/mL